Compound potency records, mixed from different reports. Data source: NIAID ChemDB in PubChem.

Common to all: growth or infection tests; agent: Mycobacterium avium complex

Rows are shuffled and stem from different studies. MIC50, MIC90 and the like: level of inhibition, or share of isolates inhibited. Blank or dashed fields: not listed here. Two numbers with a dash give a range or band.

smiles	strain or isolate	measure	read by	value
C=C(C)CC[C@H]1CN(c2ccn(N3CCOCC3)c2)C(=O)O1		MIC50		>100 µM
O=C(O)c1cn(N2CCOCC2)c2cc(NC3CC3)c([N+](=O)[O-])cc2c1=O		MIC90		8.9 µM
CCCCCCCCO[C@@H]1O[C@@H](C(CO[C@@H]2O[C@@H](C(O)CO)[C@H](O)[C@H]2O)OC)[C@H](OC)[C@H]1OC	NJ211	MIC		>128 µg/mL
COc1ccc(/C(C)=N/NC(N)=S)cc1	108	MIC		0.125 µg/mL
CCCCCCCCO[C@H]1O[C@H](CO[C@H]2O[C@H](CO)[C@@H](O)[C@@H]2O)[C@@H](O)[C@@H]1O	NJ211	MIC		>128 µg/mL
CCCC(C)Nc1cc2c(cc1[N+](=O)[O-])c(=O)c(C(=O)O)cn2C(C)CCC		MIC50		>200 µM
CC[C@H]1OC(=O)[C@H](C)[C@@H](O[C@H]2C[C@@](C)(OC)[C@@H](OC(C)=O)[C@H](C)O2)[C@H](C)[C@@H](O[C@@H]2O[C@H](C)C[C@H](N(C)C)[C@H]2O)C(C)(O)C[C@@H](C)/C(=N\OCCC2CCCCC2)[C@H](C)[C@@H](O)[C@]1(C)O	20092 (clarithromycin-resistant)	MIC		3.13 µg/mL
Cc1ccn2c(C(=O)NCc3ccc4c(c3)CCO4)c(C)nc2c1	Clinical isolate PRV	MIC	MTT	4 µg/mL
CCCCCCCCOC1O[C@@H](C(O)COC2O[C@@H](C(O)CO)[C@H](O)[C@H]2O)[C@H](O)[C@H]1O	NJ304	MIC		>128 µg/mL
CC(C)(C)n1cc(C(=O)O)c(=O)c2cc([N+](=O)[O-])c(N3CCSCC3)cc21		MIC50		9 µM
CO[C@H]1/C=C/O[C@@]2(C)Oc3c(C)c(O)c4c(O)c(c(N5CCN(Cc6c(C)cc(C)cc6C)CC5)c(O)c4c3C2=O)NC(=O)/C(C)=C\C=C\[C@H](C)[C@H](O)[C@@H](C)[C@@H](O)[C@@H](C)[C@H](OC(C)=O)[C@@H]1C	67 strains (HIV+)	MIC90		0.5 µg/mL
O=C(O)c1cn(C2CC2)c2c(Cl)c(N3C[C@@H]4CCCN[C@@H]4C3)c(F)cc2c1=O	101	MIC90		1 µg/mL
Cc1ccc2nc(C)c(C(=O)NCc3ccc(C(F)(F)F)cc3)n2c1	Clinical isolate LPR	MIC	MTT	2 µg/mL
CCN=c1cc2n(-c3ccc(Cl)cc3)c3ccccc3nc-2cc1Nc1ccc(Cl)cc1	1017	MBC		64 µg/mL
CC[C@H]1OC(=O)[C@H](C)[C@@H](O[C@H]2C[C@@](C)(OC)[C@@H](O)[C@H](C)O2)[C@H](C)[C@@H](O[C@@H]2O[C@H](C)C[C@H](N(C)C)[C@H]2O)[C@](C)(OC)C[C@@H](C)C(=O)[C@H](C)[C@@H](O)[C@]1(C)O	Isolate 90-0791	MIC		3 µg/mL
O=C(O)c1cn(C2CCC2)c2cc(NC3CCC3)c([N+](=O)[O-])cc2c1=O		MIC50		75.5 µM
CCCCCCCCOC1OC([C@H](CO)OC2O[C@@H](C(O)CO)[C@H](O)[C@H]2O)[C@H](O)[C@H]1O	NJ304	MIC		>128 µg/mL
CC[C@H]1OC(=O)[C@H](C)[C@@H](OC2C[C@@](C)(OC)[C@@H](O)[C@H](C)O2)[C@H](C)[C@@H](O[C@@H]2O[C@H](C)C[C@H](N(C)C)[C@H]2O)C(C)(O)C[C@@H](C)/C(=N\OCCCCCc2ccccc2)[C@H](C)[C@@H](O)[C@]1(C)O	20039 (clarithromycin-susceptible)	MIC		3.13 µg/mL
CCCCCCCCO[C@@H]1O[C@@H]([C@H](COC)O[C@H]2O[C@H](COCc3ccccc3)[C@@H](OCc3ccccc3)[C@@H]2OCc2ccccc2)[C@H](OC)[C@H]1OC	NJ304	MIC		>128 µg/mL
CC[C@H]1OC(=O)[C@H](C)[C@@H](O[C@H]2C[C@@](C)(OC)[C@@H](O)[C@H](C)O2)[C@H](C)[C@@H](O[C@@H]2O[C@H](C)C[C@H](N(C)C)[C@H]2O)[C@](C)(O)C[C@@H](C)/C(=N\OCOCCOC)[C@H](C)[C@@H](O)[C@]1(C)O	Isolate 89-0733	MIC		2 µg/mL
CC[C@H]1OC(=O)[C@H](C)[C@@H](OC2C[C@@](C)(OC)[C@@H](O)[C@H](C)O2)[C@H](C)[C@@H](O[C@@H]2O[C@H](C)C[C@H](N(C)C)[C@H]2O)C(C)(O)C[C@@H](C)/C(=N\OCCc2ccccc2)[C@H](C)[C@@H](O)[C@]1(C)O	20092 (clarithromycin-resistant)	MIC		>50 µg/mL
CC(C)N=c1cc2n(-c3ccc(Cl)cc3)c3ccccc3nc-2cc1Nc1ccc(Cl)cc1	453	MBC		16 µg/mL
CCO/N=C1\[C@H](C)CC(C)(O)[C@H](O[C@@H]2O[C@H](C)C[C@H](N(C)C)[C@H]2O)[C@@H](C)[C@H](O[C@H]2C[C@@](C)(OC)[C@@H](OC(C)=O)[C@H](C)O2)[C@@H](C)C(=O)O[C@H](CC)[C@@](C)(O)[C@H](O)[C@H]1C	20039 (clarithromycin-susceptible)	MIC		>50 µg/mL
CC[C@H]1OC(=O)[C@H](C)[C@@H](O[C@H]2C[C@@](C)(OC)[C@@H](O)[C@H](C)O2)[C@H](C)[C@@H](O[C@@H]2O[C@H](C)C[C@H](N(C)C)[C@H]2O)[C@](C)(OC)C[C@@H](C)C(=O)[C@H](C)[C@@H](O)[C@]1(C)O		MBC		16–32 µg/mL
O=C(O)c1cn(CCF)c2cc(NCCF)c([N+](=O)[O-])cc2c1=O		MIC90		100 µM
CCCCCCCCO[C@@H]1OC(C(CO[C@@H]2O[C@@H]([C@H](O)CO)[C@H](O)[C@H]2O)OC(C)=O)[C@H](OC(C)=O)[C@H]1OC(C)=O	NJ168	MIC		>128 µg/mL
O=C(O)c1cn(N2CCSCC2)c2cc(NC3CC3)c([N+](=O)[O-])cc2c1=O		MIC50		1.1 µM
CCCCCCCCO[C@H]1OC([C@@H](COCc2ccccc2)O[C@H]2O[C@H]([C@@H](O)CO)[C@@H](O)[C@@H]2O)[C@@H](OCc2ccccc2)[C@@H]1OCc1ccccc1	NJ304	MIC		>128 µg/mL

3 of the rows above, restated:

smiles	strain or isolate	measure	read by	value
O=C(O)c1cn(N2CCOCC2)c2cc(NC3CC3)c([N+](=O)[O-])cc2c1=O		MIC90		8.9 µM
CCCCCCCCO[C@@H]1O[C@@H]([C@H](COC)O[C@H]2O[C@H](COCc3ccccc3)[C@@H](OCc3ccccc3)[C@@H]2OCc2ccccc2)[C@H](OC)[C@H]1OC	NJ304	MIC		>128 µg/mL
O=C(O)c1cn(N2CCSCC2)c2cc(NC3CC3)c([N+](=O)[O-])cc2c1=O		MIC50		1.1 µM